PubChem BioAssay AID2606 (The Scripps Research Institute Molecular Screening Center, 2010)
The list shows a part of the results, in another mix than the full data. The source made the active and inactive calls. Cut-off read from the data, not from the text of the source: active = inhibition above about 38%; inactive = the rest.

Protein sequences, listed by entry. Tags and fused reporters are not part of them.
UniProt P9WHR9, whole entry: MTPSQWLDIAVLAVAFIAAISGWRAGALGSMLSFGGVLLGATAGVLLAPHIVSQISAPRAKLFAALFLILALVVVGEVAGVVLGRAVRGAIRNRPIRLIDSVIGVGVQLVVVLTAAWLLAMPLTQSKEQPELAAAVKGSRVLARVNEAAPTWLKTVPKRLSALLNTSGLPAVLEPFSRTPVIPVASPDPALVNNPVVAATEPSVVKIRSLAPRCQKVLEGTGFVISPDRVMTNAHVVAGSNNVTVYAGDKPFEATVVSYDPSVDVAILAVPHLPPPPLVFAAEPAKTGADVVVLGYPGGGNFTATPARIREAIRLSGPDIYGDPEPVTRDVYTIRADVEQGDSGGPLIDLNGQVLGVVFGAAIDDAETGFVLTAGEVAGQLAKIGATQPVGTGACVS

Target: Serine protease Rv3671c (Mycobacterium tuberculosis (strain ATCC 25618 / H37Rv)) (UniProt P9WHR9)
Test: inhibition of M. tuberculosis membrane protease Rv3671c – biochemical, fluorescence polarization, M. tuberculosis H37Rv, primary screen (AID 2606);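 note: extracellular domain of Rv3671c used as enzyme; 0% = enzyme with DMSO and 100% = no enzyme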
Conditions: at 5.96 µM; active compounds read high

| SMILES | inhibition |
| --- | --- |
| CN1CCC(Nc2ccc(Cl)cc2)CC1 | inactive: 6.22% |
| CCCOc1ccc(C)cc1CN(CCCl)CCCl | inactive: 9.37% |
| COc1cc(OC)cc(C(=O)NCC2(N3CCOCC3)CCCCC2)c1 | inactive: 0.38% |
| COc1cccc(C(=O)N(c2cc(C)cc(C)c2)C2CCN(C(=O)OC(C)(C)C)CC2)c1 | inactive: -4.66% |
| CCC(CO)(C(=O)OC1CN2CCC1CC2)c1ccccc1 (stereo not drawn) | inactive: 2.79% |
| O=C(O)C1(Nc2ccccc2)CCN(Cc2ccccc2)CC1 | inactive: -8.87% |
| CC(C)(C)OC(=O)N1CCC(Nc2ccccc2)CC1 | inactive: 2.86% |
| CCCOc1ccc(C(=O)NCC2(N(C)C)CCCCC2)cc1 | inactive: -4.79% |
| CN1CCC(Nc2ccc(F)c(Cl)c2)CC1 | inactive: -5.55% |
| CCOc1ncccc1C(=O)NCC1(N2CCOCC2)CCCCC1 | inactive: 9.01% |
| CN(C)c1ccc(C(=O)NCC2(N3CCCCC3)CCCCC2)cc1 | inactive: -0.3% |
| O=C(NCC1(N2CCCCC2)CCCCC1)c1ccco1 | inactive: -12.1% |
| CCN1CCC(Nc2cccc(F)c2)CC1 | inactive: -5.78% |
| Fc1ccccc1NC1CCN(Cc2ccccc2)CC1 | inactive: -0.92% |
| Cc1ccc(C(=O)NCC2(N3CCCCC3)CCCCC2)o1 | inactive: 11.8% |
| COc1cc(OC)cc(C(=O)NCC2(N3CCCCC3)CCCCC2)c1 | inactive: -7.11% |
| CN(C)C1(CNC(=O)c2cccc(C#N)c2)CCCCC1 | inactive: 3.65% |
| CCCN1CCC(Nc2cc(OC)cc(OC)c2)CC1 | inactive: -0.4% |
| c1ccc(CN2CCC(Nc3ccccc3)CC2)cc1 | inactive: 8.41% |
| N#Cc1ccc(C(=O)NCC2(N3CCCCC3)CCCCC2)cc1 | inactive: 3.38% |
| CC(C)(C)OC(=O)N1CCC(N(C(=O)c2ccccc2)c2ccc(Cl)cc2)CC1 | inactive: -6.52% |

| SMILES | inhibition |
| --- | --- |
| O=C(OC1CN2CCC1CC2)C1c2ccccc2C=Cc2ccccc21 (stereo not drawn) | inactive: -3.01% |
| CCc1cc(C(=O)NCC2(N3CCCCC3)CCCCC2)sc1C | inactive: -5.1% |
| CCOC(=O)N1CCC(Nc2ccc(C)cc2)CC1 | inactive: 1.17% |
| N/C(=N\O)c1c(N)no[n+]1[O-] | inactive: -4.56% |
| COc1ccc(C(=O)NCC2(N3CCOCC3)CCCCC2)cc1OC | inactive: 8.3% |
| COc1cc(C(=O)NCC2(N3CCOCC3)CCCCC2)cc(OC)c1C | inactive: 8.7% |
| O=C(NCC1(N2CCOCC2)CCCCC1)c1cc(Br)ccc1Cl | inactive: -0.63% |
| O=C(NCC1(N2CCCCC2)CCCCC1)c1cncc(Br)c1 | inactive: -6.67% |
| CN1CCC(Nc2cccc(F)c2)CC1 | inactive: -8.19% |
| O=C(NCC1(N2CCOCC2)CCCCC1)c1cc(F)c(F)cc1Cl | inactive: -3.59% |
| COc1cc(OC)c(C(=O)NCC2(N(C)C)CCCCC2)cc1OC | inactive: 11.9% |
| CC(C)c1ccc(NC2CCN(C(=O)OC(C)(C)C)CC2)cc1 | inactive: 4.49% |
| CN(C)c1cccc(C(=O)NCC2(N3CCCCC3)CCCCC2)c1 | inactive: 4.38% |
| COc1ccc(CN(CCCl)CCCl)cc1Cl | inactive: -3.01% |
| COc1cc(C(=O)NCC2(N3CCCCC3)CCCCC2)ccc1OC(F)F | inactive: -14.2% |
| O=C(NCC1(N2CCOCC2)CCCCC1)c1cc(=O)[nH]c2ccccc12 | inactive: -11.2% |
| CN1CCN(CCOC(=O)C(O)(c2ccccc2)c2ccccc2)CC1 | inactive: -3.92% |
| COc1ccc(NC2CCN(C(=O)OC(C)(C)C)CC2)cc1 | inactive: -6.53% |
| O=C(NCC1(N2CCCCC2)CCCCC1)c1cccc(C(F)(F)F)c1 | inactive: -17% |
| N#CC1(Nc2ccccc2)CCN(CCc2ccccc2)CC1 | inactive: -0.29% |
| CCN1CCC(Nc2ccc(Cl)cc2)CC1 | inactive: -1.17% |

| SMILES | inhibition |
| --- | --- |
| O=C(NCC1(N2CCCCC2)CCCCC1)c1cccc([N+](=O)[O-])c1 | inactive: -0.48% |
| O=C(NCC1(N2CCCCC2)CCCCC1)c1ccc(OC(F)F)cc1 | inactive: 0.85% |
| Cc1ccc(OCC(C)C)c(CN(CCCl)CCCl)c1 | inactive: 7.42% |
| CCOC(=O)N1CCC(Nc2cccc(C)c2)CC1 | inactive: 3.33% |
| COc1ccc(NC2CCN(CCc3ccccc3)CC2)c(OC)c1 | inactive: 4.46% |
| O=C(NCC1(N2CCCCC2)CCCCC1)c1ccc(F)cc1 | inactive: 4.07% |
| CCOc1ccc(C)cc1CN(CCCl)CCCl | inactive: 4.62% |
| COc1ccc(Cl)cc1C(=O)NCC1(N2CCOCC2)CCCCC1 | inactive: 6.18% |
| O=C(OC1CN2CCC1CC2)C1c2ccccc2Oc2ccccc21 (stereo not drawn) | inactive: -1.14% |
| N#CC1(Nc2ccccc2)CCN(Cc2ccccc2)CC1 | inactive: 3.5% |
| O=C(NCC1(N2CCCCC2)CCCCC1)c1ccc(Cl)s1 | inactive: -1.83% |
| CCOC(=O)N1CCC(Nc2ccc(OC)cc2)CC1 | inactive: -8.71% |
| Cc1cc(C)cc(N(C(=O)c2ccccc2)C2CCN(C(=O)OC(C)(C)C)CC2)c1 | inactive: -18.7% |
| O=C(NCC1(N2CCCCC2)CCCCC1)c1ccc(Cl)nc1 | inactive: -15.1% |
| O=C(NCC1(N2CCOCC2)CCCCC1)c1cc2ccccc2o1 | inactive: -8.06% |
| CSc1ccccc1C(=O)NCC1(N2CCCCC2)CCCCC1 | inactive: -7.19% |
| COc1ccc(C(=O)NCC2(N3CCCCC3)CCCCC2)c(OC)c1OC | inactive: -2.21% |
| CC(C)(C)OC(=O)N1CCC(N(C(=O)c2ccccc2)c2ccc(F)cc2)CC1 | inactive: -0.72% |
| COc1ccc(C(=O)NCC2(N3CCCCC3)CCCCC2)cc1 | inactive: 4.47% |
| O=C(NCC1(N2CCCCC2)CCCCC1)c1cccs1 | inactive: 2.83% |
| O=C(NCC1(N2CCCCC2)CCCCC1)c1ccc(=O)[nH]c1 | inactive: 0.1% |
